Values from PubChem BioAssay AID624099 (ICCB-Longwood, 2012)
In all, the deposit lists about 21,000 reagents; shown is a random part of them. 497 of all reagents (2.4%) were called active. 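Higher z means weaker E2 silencing; only reporter increases were scored, and knock-downs that hurt cell survival may mask genuine repressor factors.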

Purpose: 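Human genes that papillomavirus E2 requires to repress the HPV18 LCR promoter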 (primary screen)
System: human C33A cervical carcinoma cells (HPV-negative) stably expressing BPV1 E2 and an HPV18 LCR luciferase reporter
Knock-down reagent: siRNA pool against human genes, 40 nM
Duration: 72 h
Detection: 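HPV18 LCR reporter light per well, converted to plate-wise z-scores that exclude control wells, and averaged over triplicate plates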
Reading the numbers: mean z-score and z-score: higher = stronger reporter signal, weaker E2 silencing
Active means: 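Hit if mean z-score reaches 2 and two or more of three replicate z-scores also reach 2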

TNFRSF17 → mean z-score = 1.65; z-score, replicate A = 1.66; z-score, replicate B = 1.5; z-score, replicate C = 1.77; Call = inactive
GLIPR1 → mean z-score = 0.93; z-score, replicate A = 0.91; z-score, replicate B = 0.79; z-score, replicate C = 1.09; Call = inactive
LOC388751 (retired record) → mean z-score = 1.1; z-score, replicate A = 1.46; z-score, replicate B = 0.89; z-score, replicate C = 0.95; Call = inactive
JUP → mean z-score = 0.31; z-score, replicate A = 0; z-score, replicate B = 0.37; z-score, replicate C = 0.55; Call = inactive
TCN2 → mean z-score = -1.33; z-score, replicate A = -1.23; z-score, replicate B = -1.37; z-score, replicate C = -1.37; Call = inactive
AARS2 → mean z-score = 0.21; z-score, replicate A = 0.5; z-score, replicate B = 0.08; z-score, replicate C = 0.06; Call = inactive
UBB → mean z-score = -3.26; z-score, replicate A = -2.44; z-score, replicate B = -3.64; z-score, replicate C = -3.71; Call = inactive
CD63 → mean z-score = 0.56; z-score, replicate A = 0.61; z-score, replicate B = 0.44; z-score, replicate C = 0.63; Call = inactive
MYADML → mean z-score = 1.01; z-score, replicate A = 0.8; z-score, replicate B = 0.94; z-score, replicate C = 1.28; Call = inactive
POLR3C → mean z-score = -0.09; z-score, replicate A = 0.1; z-score, replicate B = -0.26; z-score, replicate C = -0.1; Call = inactive
HAS1 → mean z-score = 0.54; z-score, replicate A = 0.43; z-score, replicate B = 0.4; z-score, replicate C = 0.8; Call = inactive
KRTAP10-10 → mean z-score = 0.81; z-score, replicate A = 1.24; z-score, replicate B = 0.49; z-score, replicate C = 0.69; Call = inactive
BORCS8-MEF2B → mean z-score = 2.51; z-score, replicate A = 2.52; z-score, replicate B = 2.1; z-score, replicate C = 2.91; Call = active
LOC284964 (retired record) → mean z-score = 0.25; z-score, replicate A = 0.31; z-score, replicate B = 0.41; z-score, replicate C = 0.04; Call = inactive

Called active (from the list above):
BORCS8-MEF2B → mean z-score = 2.51; z-score, replicate A = 2.52; z-score, replicate B = 2.1; z-score, replicate C = 2.91; Call = active
